The results in this text go back to US20150023988A1.

What all share (experiment): cell-based or functional assay
Test [1] has as its target human voltage-gated sodium channel Nav1.5 (human) (UniProt Q14524).
The target of test [2] is human voltage-gated sodium channel Nav1.7 (human) (UniProt Q15858).
Test [3] addresses human voltage-gated sodium channel Nav1.3 (human) (UniProt Q9NY46).
Test [4] concerns the target human voltage-gated sodium channel Nav1.4 (human) (UniProt P35499).
Test [5] addresses human voltage-gated sodium channel Nav1.5 (human), Q14524.
Test [6] has as its target human voltage-gated sodium channel Nav1.4 (human), P35499.
Test [7] concerns the target human voltage-gated sodium channel Nav1.7 (human), Q15858.

“And” between values parts separate entries of the source, which are not always exact repeats. Equal entries are not always repeated. A value given as a limit tells only on which side of the number the result lay.

Take “[Glu20;Nva24;Tyr28]JzTx-V(1-29) (peptide; modification not given)”: the IC50 (IonWorks Quattro) in test [1], in test [2], in test [3] and in test [4] was above 5000 nM in each case.

Turning to “[Glu20]JzTx-V(1-29)-Trp (peptide; modification not given)”, the IC50 (IonWorks Quattro) in test [1] is 11100 nM; in test [2] it was 170 nM; in test [3] it was above 5000 nM; in test [4], above 5000 nM. Besides, in test [4], the Nav1.4/Nav1.7 (ratio of IC50s) amounted to 30.

Take “[Atz(NPEG10)5;Nle6]JzTx-V(1-29) (peptide; modification not given)”: the IC50 (IonWorks Quattro) in test [1], in test [2], in test [3] and in test [4] was above 7000 nM each time.

On to “[Leu20]JzTx-V(1-29) (peptide; modification not given)”, for which the IC50 (IonWorks Quattro) worked out at 8300 nM in test [1], 70 nM in test [2], 2510 nM in test [3] and 1000 nM in test [4]. The Nav1.4/Nav1.7 (ratio of IC50s) in test [4] was found to be 14.

Take “[Glu20;Tyr28;Asn29]JzTx-V(1-29) (peptide; modification not given)”: the IC50 (IonWorks Quattro) in test [1], in test [3] and in test [4] was above 5000 nM each time.

Turning to “[Glu20;Atz(NPEG10)29]JzTx-V(1-29) (peptide; modification not given)”, the IC50 (IonWorks Quattro) was 5000 nM in test [2], above 5000 nM in test [3] and above 5000 nM in test [4]. Besides, the Nav1.4/Nav1.7 (ratio of IC50s) in test [4] amounted to 1.

Turning to “[Glu20;Tyr28;Leu29]JzTx-V(1-29) (peptide; modification not given)”, the IC50 (IonWorks Quattro) in test [1] is above 5000 nM; in test [3] it was 3000 nM and > 5000 nM; in test [4], above 5000 nM.

In the case of “[Glu20,29;Tyr28]JzTx-V(1-29) (peptide; modification not given)”, the IC50 (IonWorks Quattro) in test [1], in test [3] and in test [4] was above 5000 nM each time.

In the case of “[Glu20;Atz(NPEG10)23]JzTx-V(1-29) (peptide; modification not given)”, the values for the IC50 (IonWorks Quattro) in test [2], in test [3] and in test [4] were 5000 nM, above 5000 nM and above 5000 nM, respectively. Also, in test [4], the Nav1.4/Nav1.7 (ratio of IC50s) was 1.

“[Nle6;Atz(NPEG10)8]JzTx-V(1-29) (peptide; modification not given)”: the IC50 (IonWorks Quattro) in test [1], in test [3] and in test [4] was above 7000 nM each time.

On to “[Glu20;Tyr28;Ser29]JzTx-V(1-29) (peptide; modification not given)”, for which the IC50 (IonWorks Quattro) in test [1], in test [3] and in test [4] was above 5000 nM in each case.

“[Glu1,20;Tyr28]JzTx-V(1-29) (peptide; modification not given)”: the IC50 (IonWorks Quattro) in test [1] is 2000 nM; in test [3], above 5000 nM; in test [4] it was above 5000 nM.

In the case of “[Atz(NPEG10)1;Glu20]JzTx-V(1-29) (peptide; modification not given)”, the IC50 (IonWorks Quattro) in test [1] is 15100 nM; in test [3], above 5000 nM; in test [4], above 5000 nM. Moreover, the Nav1.4/Nav1.7 (ratio of IC50s) in test [4] is 28.

Consider “[Glu20;Tyr28;Nle29]JzTx-V(1-29) (peptide; modification not given)”, for which the IC50 (IonWorks Quattro) in test [1] was above 5000 nM; in test [3], 4000 nM; in test [4], above 5000 nM.

For “[Nle6;Atz(NPEG10)11]JzTx-V(1-29) (peptide; modification not given)”, the IC50 (IonWorks Quattro) in test [1] is above 5000 nM; in test [3] it was 200 nM and 400 nM; in test [4], 400 nM and 500 nM. Also, the Nav1.4/Nav1.7 (ratio of IC50s) in test [4] is 4.

As for “[Glu1;1-Nal7]JzTx-V(1-29) (peptide; modification not given)”, the IC50 (IonWorks Quattro) in test [1] is above 5000 nM; in test [3], 400 nM and 500 nM; in test [4] it was 700 nM and 500 nM. Also, the Nav1.4/Nav1.7 (ratio of IC50s) in test [4] is 21 and 10.

For “[Glu20;Lys24;Tyr28]JzTx-V(1-29) (peptide; modification not given)”, the IC50 (IonWorks Quattro) in test [1], in test [3] and in test [4] was above 5000 nM each time.

In test [5], YCQKWLWTCDSKRGCCEGLRCKLWCRKII (modifications not checked) [[Nle6, Pra14]JzTx-V(1-29)] came in with a PX hNav1.5 Tonic IC50 of 630 nM. The same molecule registered a PX hNav1.4 Tonic IC50 in test [6] of 5 nM. The molecule further displayed a PX hNav1.7 Tonic IC50 in test [7] of 0.3 nM.

In test [5], GCQKWLWTCDSKRACCEGLECKLWCRKII (modifications not checked) [[Pra1; Nle6; Glu20]JzTx-V(1-29)] displayed a PX hNav1.5 Tonic IC50 of 2660 nM. In addition, the PX hNav1.4 Tonic IC50 in test [6] came to 790 nM. The same molecule yielded a PX hNav1.7 Tonic IC50 in test [7] of 2.63 nM.

Regarding VYCQKWLWTCDSKRKCCEGLRCKLWCRKII (modifications not checked) [Nva-[Nle6, Lys(Atz(NPEG10)-NPEG4)14]JzTx-V(1-29)], the PX hNav1.5 Tonic IC50 in test [5] stood at 950 nM. The PX hNav1.4 Tonic IC50 in test [6] worked out at 51.3 nM. This molecule also had a PX hNav1.7 Tonic IC50 in test [7] of 9.67 nM.

For the molecule GYCQKWLWTCDSKRACCEGLECKLWCRKII (modifications not checked) [Pra-[Nle6; Glu20]JzTx-V(1-29)], the PX hNav1.5 Tonic IC50 in test [5] was determined as 1200 nM. For the same molecule, the PX hNav1.4 Tonic IC50 in test [6] turned out to be 804 nM. The molecule further came in with a PX hNav1.7 Tonic IC50 in test [7] of 1.87 nM.

In test [5], AYCQKWLWTCDSKRACCAGLRCKLWCRKEI (modifications not checked) [CyA-[Nle6, Atz(NPEG10)17, Glu28]JzTx-V(1-29)] registered a Nav1.5/Nav1.7 of 236 fold and a PX hNav1.5 Tonic IC50 of 1330 nM. Moreover, in test [6], the Nav1.4/Nav1.7 was 31 fold and the PX hNav1.4 Tonic IC50 came to 172 nM. The molecule also had a PX hNav1.7 Tonic IC50 in test [7] of 5.62 nM.

In test [5], YCQKWLWTCDSKRACCGGLECKLWCRKYI (modifications not checked) [[Nle6; Pra17; Glu20; Tyr28]JzTx-V(1-29)] returned a PX hNav1.5 Tonic IC50 of 3520 nM. Besides, in test [6], the PX hNav1.4 Tonic IC50 was 614 nM. For the same molecule, in test [7], the PX hNav1.7 Tonic IC50 came to 3.8 nM.

Regarding VYCQKWLWTCDSKRKCCEGLRCKLWCRKII (modifications not checked) [Nva-[Leu6; Lys(Atz(NPEG10))14]JzTx-V(1-29)], the PX hNav1.5 Tonic IC50 in test [5] is 2410 nM. The molecule also showed a PX hNav1.4 Tonic IC50 in test [6] of 128 nM. Further, the PX hNav1.7 Tonic IC50 in test [7] stood at 11.6 nM.

Turning to YCQKWLWTCDSKRACCGGLECKLWCRKII (modifications not checked) [[Nle6; Pra17; Glu20]JzTx-V(1-29)], the PX hNav1.5 Tonic IC50 in test [5] is 1020 nM. In test [6], this molecule displayed a PX hNav1.4 Tonic IC50 of 291 nM. For the same molecule, in test [7], the PX hNav1.7 Tonic IC50 was 9.95 nM.

In test [5], GYCQKWLWTCDSKRACCEGLECKLWCRKYI (modifications not checked) [Pra-[Nle6; Glu20; Tyr28]JzTx-V(1-29)] displayed a PX hNav1.5 Tonic IC50 of 4370 nM. This molecule showed a PX hNav1.4 Tonic IC50 in test [6] of 966 nM. The PX hNav1.7 Tonic IC50 in test [7] turned out to be 0.427 nM.
